Results published in patent US20230212266A1 (FRED HUTCHINSON CANCER CENTER, published 2023).

Molecular target: SARS-CoV-2 receptor binding domain (RBD) (SARS-CoV-2)
Assay: BLI: mAb on anti-human Fc probe, dipped in the antigen

B1: CV2-55 (antibody, V domains shown)
VH: QVQLVESGGGVVQPGRSLRLSCAASGFTFSSYAMHWVRQAPGKGLEWVAVISYDGSNKYYADSVKGRFTISRDNSKNTLYLQMNSLRAEDTAVYYCARALTGNYYYGMDVWGQGTTVTVSS
VL: [skipping about 100 residues]
**Q.** Does B1 bind?
**A.** no binding
